This data set concerns the target GST-eIF4E K119A (UniProt P06730). In words: GST pull-down, scintillation counting. As to conditions: 5' cap-0 7MeGppp on A1; recombinant protein; protein details: N-terminal GST; label: 32P in cap (from [alpha-32P]GDP).

The chains behind the UniProt entries cited, without tags or fusion partners.
UniProt P06730, whole entry K119A: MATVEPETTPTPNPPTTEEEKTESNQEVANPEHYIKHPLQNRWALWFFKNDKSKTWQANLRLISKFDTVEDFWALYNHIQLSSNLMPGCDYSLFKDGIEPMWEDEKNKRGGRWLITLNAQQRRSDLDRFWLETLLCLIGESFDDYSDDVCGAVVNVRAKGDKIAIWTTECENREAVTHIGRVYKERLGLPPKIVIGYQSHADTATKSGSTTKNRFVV

Construct, isoform or probe ends are uncertain for at least one entry.

“AUUAAAGGUU [[32P]7MeGpppA-RNALS10 (made with SARS-CoV-2 nsps)]”: the binding result was “binds”.
